PubChem BioAssay AID1259414 – Drosophila RNAi Screening Center | 2018
The deposit covers about 24,000 reagents; below is an unselected part of those that have a named target and a result. Over the whole deposit, about 1,210 (5%) got an active call. 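Inactive calls also include excluded dsRNAs with several or no targets, genes unexpressed in JW18, and well A1, regardless of score.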

Test: 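Genome-wide screen for host control of endosymbiont load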 (primary screen)
Cell system: Drosophila JW18 cells infected with Wolbachia
Reagents: long dsRNA against Drosophila genes, 0.25 µg dsRNA per well of a 384-well plate
Time to read-out: 5 days
Conditions: cells persistently infected with Wolbachia before knock-down; no added drug
Measurement: 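Imaged fluorescence in situ signal for Wolbachia 23S rRNA per DAPI-counted host cell, given as a robust z-score within each plate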
Reading the numbers: Wolbachia per cell robust z: higher = more Wolbachia per host cell than the plate typical
Hit rule: 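Hit when robust z is 1.5 or more, or -1.5 or less, in at least two of three replicates; excludes dsRNAs with several or no targets, genes not expressed in JW18 and well A1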

Silencing of Mst84Db (GeneID 40888) [DRSC12542] came out at: Wolbachia per cell robust z, rep 1 = -2.29; Wolbachia per cell robust z, rep 2 = 0.2; Wolbachia per cell robust z, rep 3 = 0.908; inactive.
After knock-down of Mst84Db (GeneID 40888) [DRSC12598] the results were Wolbachia per cell robust z, rep 1 = -0.687; Wolbachia per cell robust z, rep 2 = 0.502; Wolbachia per cell robust z, rep 3 = 0.303; inactive.
After knock-down of Mst84Db (GeneID 40888) [DRSC29236], the record shows Wolbachia per cell robust z, rep 1 = 0.468; Wolbachia per cell robust z, rep 2 = 0.341; Wolbachia per cell robust z, rep 3 = 1.09; inactive.
Against UQCR-6.4 (GeneID 36991) [DRSC06454] the deposit lists Wolbachia per cell robust z, rep 1 = -1.63; Wolbachia per cell robust z, rep 2 = -0.264; Wolbachia per cell robust z, rep 3 = 0.235; inactive.
Against UQCR-6.4 (GeneID 36991) [DRSC28738], the entry reads Wolbachia per cell robust z, rep 1 = 1.09; Wolbachia per cell robust z, rep 2 = 0.565; Wolbachia per cell robust z, rep 3 = -0.433; inactive.
After knock-down of Gr36b (GeneID 117487) [DRSC21637], the record shows Wolbachia per cell robust z, rep 1 = 0.134; Wolbachia per cell robust z, rep 2 = -0.37; Wolbachia per cell robust z, rep 3 = -0.849; inactive.
After knock-down of Gr36b (GeneID 117487) [DRSC29818], the record shows Wolbachia per cell robust z, rep 1 = 0.893; Wolbachia per cell robust z, rep 2 = 1.37; Wolbachia per cell robust z, rep 3 = -0.0416; inactive.
Against Gr36b (GeneID 117487) [DRSC39083], the values are Wolbachia per cell robust z, rep 1 = 0.45; Wolbachia per cell robust z, rep 2 = -0.061; Wolbachia per cell robust z, rep 3 = 1.9; inactive.
For mgl (GeneID 8674055) [DRSC17800] the deposit lists Wolbachia per cell robust z, rep 1 = -0.142; Wolbachia per cell robust z, rep 2 = 0.0865; Wolbachia per cell robust z, rep 3 = 0.219; inactive.
mgl (GeneID 8674055) [DRSC17823] gave Wolbachia per cell robust z, rep 1 = -3.01; Wolbachia per cell robust z, rep 2 = -0.236; Wolbachia per cell robust z, rep 3 = -0.596; inactive.
Knock-down of mgl (GeneID 8674055) [DRSC17859] resulted in: Wolbachia per cell robust z, rep 1 = -0.66; Wolbachia per cell robust z, rep 2 = 0.975; Wolbachia per cell robust z, rep 3 = 0.296; inactive.
For mgl (GeneID 8674055) [DRSC23464], the entry reads Wolbachia per cell robust z, rep 1 = 0.816; Wolbachia per cell robust z, rep 2 = -0.346; Wolbachia per cell robust z, rep 3 = 0.354; inactive.
With knock-down of row (GeneID 36685) [DRSC07076], the screen gave Wolbachia per cell robust z, rep 1 = 0.625; Wolbachia per cell robust z, rep 2 = 0.732; Wolbachia per cell robust z, rep 3 = 0.758; inactive.
row (GeneID 36685) [DRSC07077] gave Wolbachia per cell robust z, rep 1 = -1.21; Wolbachia per cell robust z, rep 2 = 0.0764; Wolbachia per cell robust z, rep 3 = 0.285; inactive.
Against CG10914 (GeneID 37075) [DRSC06010] the deposit lists Wolbachia per cell robust z, rep 1 = 0.424; Wolbachia per cell robust z, rep 2 = 1; Wolbachia per cell robust z, rep 3 = -1.69; inactive.
Against snf (GeneID 31442) [DRSC18835] the deposit lists Wolbachia per cell robust z, rep 1 = 1.07; Wolbachia per cell robust z, rep 2 = 0.667; Wolbachia per cell robust z, rep 3 = 0.773; inactive.
For snf (GeneID 31442) [DRSC27854] the deposit lists Wolbachia per cell robust z, rep 1 = -1.48; Wolbachia per cell robust z, rep 2 = -0.793; Wolbachia per cell robust z, rep 3 = 0.396; inactive.
snf (GeneID 31442) [DRSC38949] scored Wolbachia per cell robust z, rep 1 = 1.33; Wolbachia per cell robust z, rep 2 = 1.87; Wolbachia per cell robust z, rep 3 = 1.51; active.
